Anti-infective test results gathered from many reports (values: NIAID ChemDB through PubChem).

Shared fields: whole-cell or culture tests; agent: Candida albicans; endpoint: MIC

An empty or dashed field is not shown.

| structure | strain | result |
|---|---|---|
| COc1ccc(-c2nc3ncccn3c2N=O)cc1 |  | 65 µg/mL |
| Nc1ccc(NC(=O)c2ccc(F)cc2)c(O)c1 | ATCC 10231 | 62.5 µg/mL |
| Cc1c(O)cccc1C(=O)N[C@@H](CSc1ccccc1)[C@H](O)CN1C[C@H]2CCCC[C@H]2C[C@H]1C(=O)NC(C)(C)C | I83A | 64 µg/mL |
| CCCCCOc1ccc(-c2ccc(-c3ccc(C(=O)N[C@H]4C[C@@H](O)[C@@H](O)NC(=O)[C@@H]5[C@@H](O)[C@@H](C)CN5C(=O)[C@H]([C@H](C)O)NC(=O)[C@H]([C@H](O)[C@@H](O)c5ccc(O)cc5)NC(=O)[C@@H]5C[C@@H](O)CN5C(=O)[C@H]([C@H](C)O)NC4=O)cc3)cc2)cc1 | OY-31.5 | 0.015 µg/mL |
| Cc1c(Cl)[n+](=O)c2cc(Cl)ccc2n1[O-] | Clinical isolate 22 | 7.8 µg/mL |
| O=C(Cn1c(=O)oc2cc(C(=O)c3c(F)cccc3F)ccc21)c1ccc(Cl)cc1 | ATCC 90028 | 64 µg/mL |
| CCCCCCn1sc2ncccc2c1=O |  | 30 µg/mL |
| CC(=O)c1ccc2c(c1)N(C(=O)CN1C(=O)CCC1=O)c1ccccc1S2 | NCIM no 300 | >50 µg/mL |
| Cc1ccc(OC(CCn2ccnc2)c2ccccc2)cc1 |  | 10.2 µg/mL |
| C/C=C/C/C=C/CCC(=O)[C@H]1O[C@H]1C(N)=O |  | ≤1.5 µg/mL |
| CC(=O)N1CCN(c2ccc(OC[C@H]3CO[C@](Cn4ccnc4)(c4ccc(Cl)cc4Cl)O3)cc2)CC1 |  | 12.5 µg/mL |
| C[C@H]1[C@H](O)C(=O)CC2[C@]3(C)CC[C@@]4(C)C5C[C@](C)(C(=O)O)CC[C@]5(C)CC[C@]4(C)C3CC[C@@]21C |  | >50 µg/mL |
| CCOc1ccc(N2C(=O)C(c3ccccc3)(c3ccccc3)C2c2cccs2)cc1 |  | 100 µg/mL |
| COC1OC(C)(c2ccc(-c3ccccc3)cc2)C(O)CC1N(C)C |  | >32 µg/mL |
| CCNC1Oc2cc(Cl)ccc2C(=O)/C1=C/Nc1ccc2[nH]c(=S)sc2c1 | PN-10 | 50–250 µg/mL |
| Brc1cc(Br)c(N2COc3c(ccc4ccccc34)C2)c(Br)c1 | MTCC 277 | 15 µg/mL |
| Fc1ccc(CN(Cc2ccc(-c3ccccc3)cc2)n2ccnc2)cc1 |  | 33 µM |
| CCOc1ccc(N2C(=O)C(c3ccc(C)cc3)(c3ccc(C)cc3)C2c2cccs2)cc1 |  | 100 µg/mL |
| O=C(Cn1c(=O)oc2cc(C(=O)c3c(F)cccc3F)ccc21)c1ccccc1 | ATCC 90028 | 128 µg/mL |
| COC1OC(C)(c2ccc(-c3ccccc3)cc2)C(=O)CC1N1CCOCC1 |  | >32 µg/mL |
| Cc1c(Sc2ccccc2)[n+](=O)c2cc(Cl)ccc2n1[O-] | Clinical isolate 12 | 31.25 µg/mL |
| CCC(C)n1ncn(-c2ccc(N3CCN(c4ccc(OC[C@H]5CO[C@](Cn6cncn6)(c6ccncc6)O5)cc4)CC3)cc2)c1=O | 21 | 39 µg/mL |
| CC1CCN(C(=O)c2ccc3nc(-c4cccs4)[nH]c3c2)CC1 |  | 50 µg/mL |
| O=C(Cc1nc2ccccc2o1)C(F)(F)F |  | 12 µg/mL |
| CC1(C)CC(=O)c2cc(/C=C/C(=O)c3ccc(Br)cc3)[nH]c2C1 | ATCC 2091 | 200 µg/mL |
| CCCCCCCCCCCCCCCCCCCCCCC(=O)Nc1ccccc1C(=O)OCC |  | 80 µg/mL |
| CCCCCCNC(=O)c1ccc[nH]c1=S |  | 10 µg/mL |
| Cc1ccc(C2(c3ccc(C)cc3)C(=O)N(C(c3ccccc3)c3ccccc3)C2c2cccs2)cc1 |  | 100 µg/mL |
| CN(CCCC#CC(C)(C)C)c1cccc2c1CCC(=O)N2 | Clinical isolate 15 | 62.5 µg/mL |
| NC(=S)c1ccnc(SCc2cccc(Cl)c2)c1 | 44859 | 62.5 µM |
| CC1(C)CC(=O)c2cc(C3CC(c4ccc(Br)cc4)=NO3)[nH]c2C1 | ATCC 2091 | 200 µg/mL |
| Cc1ccc(C2=NN(N=O)C(c3cn(-c4ccccc4)nc3-c3ccc(Br)s3)C2)cc1 |  | 200 µg/mL |
| CCCCCCN=c1ssc2ncccc12 |  | 25 µg/mL |
| O=C(NCc1ccccn1)c1ccc2nc(-c3ccccc3Cl)[nH]c2c1 |  | 50 µg/mL |
| CCCCCCSc1cc(C(N)=S)ccn1 | 3a | 6.25 µg/mL |
| COc1ccc(N2C(=O)C(c3ccc(C)cc3)(c3ccc(C)cc3)C2c2cccs2)cc1 |  | 100 µg/mL |
| Fc1ccccc1CN(Cc1ccc(-c2ccccc2)cc1)n1ccnc1 |  | 200 µM |
| NC(=S)c1ccnc(SC2CCCCC2)c1 | 3a | 50 µg/mL |
| COc1cccc(-c2nc3ncccn3c2N=O)c1 |  | 8 µg/mL |
| O=C(Cc1nnc2nnc3c(n12)Nc1ccccc1C3)NNC(=S)Nc1ccccc1 | ATCC 2091 | 200 µg/mL |
| Cc1ccc2occ(/C=N/NC(=O)c3ccccc3O)c(=O)c2c1 | PN-10 | 250–400 µg/mL |
| CCC(C)CC(C)CCCCCCCCC(=O)N[C@H]1C[C@@H](O)[C@H](NCCN)NC(=O)[C@@H]2[C@@H](O)CCN2C(=O)[C@H]([C@H](O)CCN)NC(=O)[C@H]([C@H](O)[C@@H](O)c2ccc(O)cc2)NC(=O)[C@@H]2C[C@@H](O)CN2C(=O)[C@H]([C@@H](C)O)NC1=O | CA1-R1 | 2 µg/mL |
| CCCCCCCCCCCCCC(O)CC(O)C(N)CC(=O)CC(C)C(N)C(=O)NC(C=O)CO |  | 3.12 µg/mL |
| O=Nc1c(-c2cccc(Br)c2)nc2ncccn12 |  | 5 µg/mL |
| O=Cc1coc2ccc(Cl)cc2c1=O | PN-10 | 10–50 µg/mL |
| O=C(Nc1ccc([N+](=O)[O-])cc1O)c1ccc(Br)cc1 | ATCC 10231 | 7.8 µg/mL |
| CCCNC(=O)c1ccc[nH]c1=S |  | 15 µg/mL |
| CCOc1cc2c(cc1F)n([O-])c(C)c(Cl)[n+]2=O | Clinical isolate 10 | 15.6 µg/mL |
| NC(=S)c1ccnc(SCc2cccc(Br)c2)c1 | 44859 | 31.25 µM |
| O=C(N/N=C/c1coc2ccc(O)cc2c1=O)c1cc(O)c(O)c(O)c1 | PN-10 | 250–400 µg/mL |
| Clc1ccc(CN(Cc2ccc(-c3ccccc3)cc2)n2ccnc2)c(Cl)c1 |  | 6.2 µM |
| CC(C)=CCC/C(C)=C\CCOC(Cn1ccnc1)c1ccc(Cl)cc1Cl | TIMM0144 | 20–40 µg/mL |
| O=C(N/N=C/c1coc2ccccc2c1=O)c1ccncc1 | PN-10 | 250–400 µg/mL |
| Cc1ccc(C2=NN(C=O)C(c3cn(-c4ccccc4)nc3-c3ccc(Br)s3)C2)cc1 |  | >200 µg/mL |
| COC(=O)c1ccc2nc(-c3ccc(OC)cc3)[nH]c2c1 |  | 50 µg/mL |
| CCCCCCCCSc1cc(C(N)=S)ccn1 | 3a | 12.5 µg/mL |
| COc1ccc(CN(Cc2ccc(-c3ccccc3)cc2)n2ccnc2)cc1 |  | 200 µM |
| Fc1ccc(N2COc3c(ccc4ccccc34)C2)cc1 | MTCC 277 | 15 µg/mL |
| CCCSc1cc(C(N)=S)ccn1 | 176 | 100 µg/mL |
| Cc1cc2occ(C=O)c(=O)c2cc1C | PN-10 | 10–50 µg/mL |
| NC(=S)c1ccnc(SCc2ccc([N+](=O)[O-])cc2)c1 | 44859 | >500 µM |
| Cc1ccc(CC(=O)Nc2ccc([N+](=O)[O-])cc2O)cc1 | Isolates | 250 µg/mL |
| CCCCn1sc2cc(C(F)(F)F)ccc2c1=O |  | 7.5 µg/mL |
| O=C(N/N=C/c1coc2ccccc2c1=O)c1ccccc1O | PN-10 | 250–400 µg/mL |
| Cc1ccc(C2=NN(C(=S)Nc3ccccc3)C(c3cn(-c4ccccc4)nc3-c3ccc(Br)s3)C2)cc1 |  | >200 µg/mL |
| CC[C@@H](C)n1ncn(-c2ccc(N3CCN(c4ccc(OC[C@H]5CO[C@](Cn6cncn6)(c6ccccn6)O5)cc4)CC3)cc2)c1=O | GEN-45 | ≤0.03 µg/mL |
| Clc1ccccc1C(c1ccccc1)(c1ccccc1)n1ccnc1 |  | 12.5 µg/mL |
| Cc1ccc(C2(c3ccc(C)cc3)C(=O)N(c3ccc([N+](=O)[O-])cc3)C2c2cccs2)cc1 |  | 100 µg/mL |
| O=C(Cn1c(=O)oc2cc(C(=O)c3cc(F)ccc3F)ccc21)c1ccc(Cl)cc1 | ATCC 90028 | 128 µg/mL |
| COc1ccc(C2=CC(c3ccc(S(N)(=O)=O)cc3)C(c3ccccc3)C2Br)cc1 | ATCC 2091 | 200 µg/mL |
| Cc1c(Sc2ccccc2)[n+](=O)c2cc(C(F)(F)F)ccc2n1[O-] | Clinical isolate 15 | 15.6 µg/mL |
| O=C(Cn1c(=O)oc2cc(C(=O)c3c(F)cccc3F)ccc21)c1ccc(Br)cc1 | ATCC 90028 | 128 µg/mL |
| CC(C)CCCC(C)CCOC(Cn1ccnc1)c1ccc(Cl)cc1Cl | TIMM0144 | 20 µg/mL |
| NC(=S)c1ccnc(SCc2ccccc2)c1 | 44859 | 120 µM |
| O=C1CSC(c2ccccc2)N1c1nnc2c(n1)[nH]c1ccccc12 | ATCC 2091 | 200 µg/mL |
| S=C(NCc1ccccc1)c1ccc[nH]c1=S |  | 20 µg/mL |
| Nc1ccc(NC(=O)c2ccc(Br)cc2)c(O)c1 | Isolates | 125 µg/mL |
| O=C(Cn1c(=O)oc2cc(C(=O)c3cc(F)ccc3F)ccc21)c1ccc(Br)cc1 | ATCC 90028 | 128 µg/mL |
| Nc1ccc(O)c(NC(=O)c2ccc(F)cc2)c1 | ATCC 10231 | 15.6 µg/mL |
| COc1ccc(N2COc3c(ccc4ccccc34)C2)cc1 | MTCC 277 | 20 µg/mL |
| O=C(Nc1ccc([N+](=O)[O-])cc1O)c1ccc(F)cc1 | ATCC 10231 | 7.8 µg/mL |
| CNC1CC(O)C(C)(c2ccc(-c3ccccc3)cc2)OC1OC |  | >32 µg/mL |

Repeating the final 6 entries:

structure,strain,result
Nc1ccc(NC(=O)c2ccc(Br)cc2)c(O)c1,Isolates,125 µg/mL
O=C(Cn1c(=O)oc2cc(C(=O)c3cc(F)ccc3F)ccc21)c1ccc(Br)cc1,ATCC 90028,128 µg/mL
Nc1ccc(O)c(NC(=O)c2ccc(F)cc2)c1,ATCC 10231,15.6 µg/mL
COc1ccc(N2COc3c(ccc4ccccc34)C2)cc1,MTCC 277,20 µg/mL
O=C(Nc1ccc([N+](=O)[O-])cc1O)c1ccc(F)cc1,ATCC 10231,7.8 µg/mL
CNC1CC(O)C(C)(c2ccc(-c3ccccc3)cc2)OC1OC,,>32 µg/mL

Rows are shuffled and stem from different studies. Two numbers with a dash give a range or band.